Results of unrelated studies side by side (data: NIAID ChemDB).

All rows: whole-cell or culture tests; organism: Mycobacterium avium complex; endpoint: MIC

Conditions beyond the fields shown may differ between rows.

compound | strain or isolate | value
Cc1c(CNc2ccc3ncccc3c2)cnc2nc(N)nc(N)c12 | NJ211 | ≤0.13 µg/mL
CO[C@H]1/C=C/O[C@@]2(C)Oc3c(C)c(O)c4c(O)c(c5c(c4c3C2=O)NC2(CCN(CC(C)C)CC2)N=5)=NC(=O)/C(C)=C\C=C\[C@H](C)[C@H](O)[C@@H](C)[C@@H](O)[C@@H](C)[C@H](OC(C)=O)[C@@H]1C | N-319 (HIV-) | 0.5 µg/mL
CCCCCCSc1nc(Cl)nc2nc[nH]c12 | NJ211 | >12.8 µg/mL
CO[C@H]1/C=C/O[C@@]2(C)Oc3c(C)c(O)c4c(=O)c(c5oc6cc(N7CCN(CC(C)C)CC7)cc(=O)c6nc5c4c3=C2O)NC(=O)/C(C)=C\C=C\[C@H](C)[C@H](O)[C@@H](C)[C@@H](O)[C@@H](C)[C@H](OC(C)=O)[C@@H]1C | N-966 (HIV+) | 0.05 µg/mL
CC1(C)N=C(N)N=C(N)N1OCCCOc1cc(Cl)c(Cl)cc1Cl | 3030 | 1 µg/mL
CCCCCSc1ncnc2nc[nH]c12 | NJ211 | >12.8 µg/mL
Cc1c(CNc2cccc3c2CCCC3)cnc2nc(N)nc(N)c12 | NJ211 | ≤0.13 µg/mL
Nc1ccc(S(=O)(=O)c2ccc(N)cc2)cc1 | DW19 | 32 µg/mL
Cc1ccc(F)c(NCc2cnc3nc(N)nc(N)c3c2C)c1.O | NJ3404 | ≤0.13 µg/mL
CC1(C)N=C(N)N=C(N)N1OCCCOc1cc(Cl)c(Cl)cc1Cl | DW16 | 2 µg/mL
Cc1ccc(Sc2ncccn2)cc1 | NJ211 | >12.8 µg/mL
COc1cc(NCc2cnc3nc(N)nc(N)c3c2C)cc(OC)c1OC | NJ3404 | ≤0.13 µg/mL
CCCCO/N=C1\[C@H](C)CC(C)(O)[C@H](O[C@@H]2O[C@H](C)C[C@H](N(C)C)[C@H]2O)[C@@H](C)[C@H](O[C@H]2C[C@@](C)(OC)[C@@H](OC(C)=O)[C@H](C)O2)[C@@H](C)C(=O)O[C@H](CC)[C@@](C)(O)[C@H](O)[C@H]1C | 20039 (clarithromycin-susceptible) | >50 µg/mL
Cc1ccc(Sc2nc(Cl)nc3nc[nH]c23)cc1 | NJ211 | >12.8 µg/mL
CC[C@H]1OC(=O)[C@H](C)[C@@H](O[C@H]2C[C@@](C)(OC)[C@@H](OC(C)=O)[C@H](C)O2)[C@H](C)[C@@H](O[C@@H]2O[C@H](C)C[C@H](N(C)C)[C@H]2O)C(C)(O)C[C@@H](C)/C(=N\OCCC2CCCCC2)[C@H](C)[C@@H](O)[C@]1(C)O | 20092 (clarithromycin-resistant) | 3.13 µg/mL
CC(=O)Nc1ccc(/C(C)=N\NC(N)=S)cc1 | 116 | 32 µg/mL
CCO/N=C1\[C@H](C)CC(C)(O)[C@H](O[C@@H]2O[C@H](C)C[C@H](N(C)C)[C@H]2O)[C@@H](C)[C@H](O[C@H]2C[C@@](C)(OC)[C@@H](OC(C)=O)[C@H](C)O2)[C@@H](C)C(=O)O[C@H](CC)[C@@](C)(O)[C@H](O)[C@H]1C | 20039 (clarithromycin-susceptible) | >50 µg/mL
C[C@@H]1CN(c2c(F)c(N)c3c(=O)c(C(=O)O)cn(C4CC4)c3c2F)C[C@H](C)N1 | N-238 (HIV-) | 1 µg/mL
COCc1c(CNc2cc(OC)ccc2OC)cnc2nc(N)nc(N)c12 | NJ168 | >13 µg/mL
CC[C@H]1OC(=O)[C@H](C)[C@@H](O[C@H]2C[C@@](C)(OC)[C@@H](OC(C)=O)[C@H](C)O2)[C@H](C)[C@@H](O[C@@H]2O[C@H](C)C[C@H](N(C)C)[C@H]2O)C(C)(O)C[C@@H](C)/C(=N\OC)[C@H](C)[C@@H](O)[C@]1(C)O | 20096 (clarithromycin-resistant) | >50 µg/mL
CN[C@@H]1[C@H](O[C@H]2[C@H](O[C@H]3[C@H](O)[C@@H](O)[C@H](N=C(N)N)[C@@H](O)[C@@H]3N=C(N)N)O[C@@H](C)[C@]2(O)C=O)O[C@@H](CO)[C@H](O)[C@H]1O | N-251 (HIV-) | 8 µg/mL
c1ccc(CSc2ccccn2)cc1 | NJ211 | >12.8 µg/mL

Repeating the first 2 entries:

| compound | strain or isolate | value |
|---|---|---|
| Cc1c(CNc2ccc3ncccc3c2)cnc2nc(N)nc(N)c12 | NJ211 | ≤0.13 µg/mL |
| CO[C@H]1/C=C/O[C@@]2(C)Oc3c(C)c(O)c4c(O)c(c5c(c4c3C2=O)NC2(CCN(CC(C)C)CC2)N=5)=NC(=O)/C(C)=C\C=C\[C@H](C)[C@H](O)[C@@H](C)[C@@H](O)[C@@H](C)[C@H](OC(C)=O)[C@@H]1C | N-319 (HIV-) | 0.5 µg/mL |